Pooled drug test results. Numbers come from NIAID ChemDB, via PubChem.

All rows: growth or infection tests; species: Vesicular stomatitis virus; method: cytopathic effect; read-out: EC50

Neighbouring rows are from separate reports. ECn: concentration that inhibits the pathogen or its effect by n%.

structure | cells | result
Nc1nc(F)nc2c1ncn2[C@@H]1C=C(CO)[C@@H](O)[C@H]1O | E6SM | 1 µg/mL
Cc1cn([C@H]2C[C@H](N=[N+]=[N-])[C@@H](CO)O2)c(=O)[nH]c1=O | PRK | >200 µg/mL
N#Cc1cncc([C@H]2O[C@H](CO)[C@@H](O)[C@@H]2O)c1 | E6SM | ≥100 µg/mL
CN(C)c1nc2c(=O)[nH]c(N)nc2n1COCCO | PRK | >400 µg/mL
OC[C@H]1O[C@@H](c2cncc(Br)c2)[C@@H](O)[C@H]1O | E6SM | ≥100 µg/mL
O=c1[nH]cnc2c1ncn2COCCO | PRK | >400 µg/mL
Nc1ncnc2c1ncn2[C@H]1OC[C@@H](CO)C1O | HeLa | >80 µg/mL
Nc1nc2c(ncn2[C@@H]2O[C@H](CO)[C@@H](O)[C@H]2N)c(=O)[nH]1 | PRK | >200 µg/mL
COc1cc(Cc2cnc(-n3c(-c4ccccc4)nc4ccc(Br)cc4c3=O)nc2N)cc(OC)c1OC | E6SM | >80 µg/mL
NC(=O)c1cncc([C@@H]2O[C@H](CO)[C@H](O)[C@@H]2O)c1 | E6SM | ≥100 µg/mL
CCc1nc(-n2c(-c3ccccc3)nc3ccc(Br)cc3c2=O)nc(N)c1-c1ccc(Cl)cc1 | E6SM | >16 µg/mL
Nc1nc(=O)n(COCCO)cc1[N+](=O)[O-] | PRK | >400 µg/mL
OC[C@H]1O[C@H](c2cncc(Br)c2)[C@@H](O)[C@H]1O | E6SM | ≥100 µg/mL
Nc1ccn([C@@H]2OC[C@H](CO)[C@H]2O)c(=O)n1 | E6SM | >400 µg/mL
[N-]=[N+]=N[C@@H]1[C@H](O)[C@@H](CO)O[C@H]1n1cnc2c(=O)[nH]c(N)nc21 | PRK | >200 µg/mL
CCc1nc(-n2c(C)nc3ccc(Br)cc3c2=O)nc(N)c1-c1ccc(Cl)cc1 | HeLa | >16 µg/mL
OC[C@H]1O[C@@H](c2cc(C#CI)c(F)cc2F)C[C@@H]1O | E6SM | >400 µg/mL
Cc1cn([C@@H]2OC[C@H](CO)[C@H]2O)c(=O)[nH]c1=O | E6SM | >400 µg/mL
Nc1ncnc2c1ncn2[C@@H]1O[C@H](CO)[C@@H](O)[C@@H]1O | PRK | 30 µg/mL
N[C@@H]1[C@H](O)[C@@H](CO)O[C@H]1n1ccc(=O)[nH]c1=O | PRK | >200 µg/mL
C=Cc1cc([C@H]2C[C@H](O)[C@@H](CO)O2)c(F)cc1F | E6SM | >400 µg/mL
CO[C@H]1[C@H](O)[C@H](n2cnc3c(N)ncnc32)O[C@@H]1CO | PRK | >100 µg/mL
Nc1ncnc2c1ncn2[C@@H]1O[C@H](CO)[C@@H](O)[C@@H]1O | PRK | 30 µg/mL
OC[C@H]1O[C@@H](c2cc(/C=C/I)c(F)cc2F)C[C@@H]1O | E6SM | >400 µg/mL

Repeating the final 2 entries:

structure | cells | result
Nc1ncnc2c1ncn2[C@@H]1O[C@H](CO)[C@@H](O)[C@@H]1O | PRK | 30 µg/mL
OC[C@H]1O[C@@H](c2cc(/C=C/I)c(F)cc2F)C[C@@H]1O | E6SM | >400 µg/mL